Measurements published in patent publication US20190106463A1.

Biological target: recombinant human integrin αvβ3 extracellular domains (R&D Systems) (human) (UniProt P06756)

MBP-D1D5 Invasin D911A
EC50: > 1000 nM
